A mixed list of measured activities; the numbers were collected in NIAID ChemDB.

Common to all: whole-cell or culture tests; species: HIV-1; cells: MT-2; read-out: EC50

Rows are shuffled and stem from different studies. ECn is the concentration giving n% inhibition of infection, replication or growth. An empty or dashed field is not shown.

compound,strain,changes,method,conditions,result
C[C@H](Cn1cnc2c(N)ncnc21)OCP(=O)(O)O,Clinical isolate,M41L/A98G/K103N/M184V/L210W/T215Y,recombinant virus assay,-,0.0112 µM
CC(C)C1=C2[C@H]3CC[C@@H]4[C@@]5(C)CC[C@H](OC(=O)[C@H]6C[C@@H](C(=O)O)C6(C)C)C(C)(C)[C@@H]5CC[C@@]4(C)[C@]3(C)CC[C@@]2([C@@H](O)CNC(=O)c2csc(N)n2)CC1=O,92HT599,-,p24 / ELISA,-,<1 µM
CC(C)C1=C2C3CCC4[C@@]5(C)CC[C@H](OC(=O)CC(C)(C)C(=O)O)C(C)(C)C5CC[C@@]4(C)[C@]3(C)CC[C@@]2(NC(=O)C2CCOCC2)CC1=O,IIIB,-,RT activity,30% human serum,<0.199 µM
CC(C)C1=C2[C@H]3CC[C@@H]4[C@@]5(C)CC[C@H](OC(=O)[C@H]6C[C@@H](C(=O)O)C6(C)C)C(C)(C)[C@@H]5CC[C@@]4(C)[C@]3(C)CC[C@@]2(CCNCC(C)(C)NC(=O)c2ccc(Cl)cc2OCCN(C)C)CC1=O,92HT599,-,p24 / ELISA,-,<1 µM
CC(C)C1=C2[C@H]3CC[C@@H]4[C@@]5(C)CC[C@H](OC(=O)CC(C)(C)C(=O)O)C(C)(C)[C@@H]5CC[C@@]4(C)[C@]3(C)CC[C@@]2(NC(=O)CCN2CCCC2)CC1=O,IIIB,-,RT activity,30% human serum,<0.199 µM
CC(C)C1=C2[C@H]3CC[C@@H]4[C@@]5(C)CC[C@H](OC(=O)[C@H]6C[C@@H](C(=O)O)C6(C)C)C(C)(C)[C@@H]5CC[C@@]4(C)[C@]3(C)CC[C@@]2(CC(=O)NCC(C)(C)NC(=O)c2ccc(Cl)cc2OCCN2CCS(=O)(=O)CC2)CC1=O,92HT599,-,p24 / ELISA,-,<1 µM
CC(C)C1=C2C3CCC4[C@@]5(C)CC[C@H](OC(=O)CC(C)(C)C(=O)O)C(C)(C)C5CC[C@@]4(C)[C@]3(C)CC[C@@]2(NC(=O)c2nccn2C)CC1=O,IIIB,-,RT activity,30% human serum,<0.199 µM
CC(C)C1=C2[C@H]3CC[C@@H]4[C@@]5(C)CC[C@H](OC(=O)[C@H]6C[C@@H](C(=O)O)C6(C)C)C(C)(C)[C@@H]5CC[C@@]4(C)[C@]3(C)CC[C@@]2([C@@H](O)CNCc2ccc(Cl)cc2OCCN2CCCCC2)CC1=O,92HT599,-,p24 / ELISA,-,<1 µM
Cc1cncc(C(=O)N[C@@]23CC[C@]4(C)[C@H](CC[C@@H]5[C@@]6(C)CC[C@H](OC(=O)CC(C)(C)C(=O)O)C(C)(C)[C@@H]6CC[C@]54C)C2=C(C(C)C)C(=O)C3)c1,IIIB,-,RT activity,30% human serum,<0.199 µM
COc1ccc(N(C)C(=O)[C@H](Cc2ccccc2)NC(=O)[C@H](C)NC(=O)N[C@@H](C)C(=O)N[C@@H](Cc2ccccc2)C(=O)N(C)c2ccc(OC)cc2)cc1,NL4-3,-,luciferase,-,0.13 µM
CC(C)C1=C2[C@H]3CC[C@@H]4[C@@]5(C)CC[C@H](OC(=O)CC(C)(C)C(=O)O)C(C)(C)[C@@H]5CC[C@@]4(C)[C@]3(C)CC[C@@]2(NC(=O)Nc2ncccn2)CC1=O,IIIB,-,RT activity,30% human serum,<0.199 µM
CC(C)C1=C2[C@H]3CC[C@@H]4[C@@]5(C)CC[C@H](OC(=O)[C@H]6C[C@@H](C(=O)O)C6(C)C)C(C)(C)[C@@H]5CC[C@@]4(C)[C@]3(C)CC[C@@]2(CC(=O)NCC(C)(NC(=O)c2ccc(Cl)cc2)C(C)O)CC1=O,92HT599,-,p24 / ELISA,-,<1 µM
Cc1ccc(OCCN(C)c2ccc(-c3cnc(C)c([C@H](OC(C)(C)C)C(=O)O)c3N3CCC(C)(C)CC3)nc2)cc1,NL4-3,-,luminescence,-,0.0016 µM
CC(=O)N1CCN(C(=O)N[C@@]23CC[C@]4(C)[C@H](CC[C@@H]5[C@@]6(C)CC[C@H](OC(=O)CC(C)(C)C(=O)O)C(C)(C)[C@@H]6CC[C@]54C)C2=C(C(C)C)C(=O)C3)CC1,IIIB,-,RT activity,30% human serum,<0.199 µM
Cc1ncc(-c2ccc(OCCOc3c(F)cccc3Cl)nc2)c(N2CCC(C)(C)CC2)c1[C@H](OC(C)(C)C)C(=O)O,NL4-3,-,luminescence,-,0.0028 µM
CC(C)C1=C2[C@H]3CC[C@@H]4[C@@]5(C)CC[C@H](OC(=O)[C@H]6C[C@@H](C(=O)O)C6(C)C)C(C)(C)[C@@H]5CC[C@@]4(C)[C@]3(C)CC[C@@]2(CCNC(=O)C2CCCCC2)CC1=O,92HT599,-,p24 / ELISA,-,<1 µM
CC(C)C1=C2C3CCC4[C@@]5(C)CC[C@H](OC(=O)CC(C)(C)C(=O)O)C(C)(C)C5CC[C@@]4(C)[C@]3(C)CC[C@@]2(NC(=O)OCCN2CCCC2=O)CC1=O,IIIB,-,RT activity,30% human serum,<0.199 µM
CC(C)=CCOc1ccc(-c2cnc(C)c([C@H](OC(C)(C)C)C(=O)O)c2N2CCC(C)(C)CC2)nc1,NL4-3,-,luminescence,-,0.0009 µM
CC(C)C1=C2C3CCC4[C@@]5(C)CC[C@H](OC(=O)CC(C)(C)C(=O)O)C(C)(C)C5CC[C@@]4(C)[C@]3(C)CC[C@@]2(NC(=O)OCC2CC2)CC1=O,IIIB,-,RT activity,30% human serum,<0.199 µM
COc1ccc(N(C)C(=O)[C@H](Cc2cc(F)cc(F)c2)Nc2ccnc(N[C@@H](Cc3cc(F)cc(F)c3)C(=O)N(C)c3ccc(OC)cc3)n2)cc1,NL4-3,-,luciferase,-,9.53 µM
Cc1ccc(OCCN(C)c2ccc(-c3cnc(C)c([C@H](OC(C)(C)C)C(=O)O)c3N3CCC(C)(C)CC3)cn2)cc1F,NL4-3,-,luminescence,-,0.005 µM
CC(C)C1=C2C3CCC4[C@@]5(C)CC[C@H](OC(=O)CC(C)(C)C(=O)O)C(C)(C)C5CC[C@@]4(C)[C@]3(C)CC[C@@]2(NC(=O)NC2CCN(C)CC2)CC1=O,IIIB,-,RT activity,30% human serum,<0.199 µM
CN(C(=O)[C@H](Cc1cc(F)cc(F)c1)NC(=O)c1ccc(F)c(C(=O)N[C@@H](Cc2cc(F)cc(F)c2)C(=O)N(C)c2ccc3scnc3c2)c1)c1ccc2scnc2c1,NL4-3,-,luciferase,-,0.01 µM
CC(C)C1=C2[C@H]3CC[C@@H]4[C@@]5(C)CC[C@H](OC(=O)[C@H]6C[C@@H](C(=O)O)C6(C)C)C(C)(C)[C@@H]5CC[C@@]4(C)[C@]3(C)CC[C@@]2(CCNCc2ccc(C(F)(F)F)cc2)CC1=O,92HT599,-,p24 / ELISA,-,<1 µM
Cc1ncc(-c2ccc(O[C@@H](C)C3CC3)nc2)c(N2CCC(C)(C)CC2)c1[C@H](OC(C)(C)C)C(=O)O,NL4-3,-,luminescence,-,0.0056 µM
CN(C(=O)[C@H](Cc1cc(F)cc(F)c1)NC(=O)CS(=O)(=O)N[C@@H](Cc1cc(F)cc(F)c1)C(=O)N(C)c1ccc2nccnc2c1)c1ccc2nccnc2c1,NL4-3,-,luciferase,-,30.38 µM
C#C[C@@]1(CO)C=C[C@H](n2cc(C)c(=O)[nH]c2=O)O1,Clinical isolate,A62V (mixture)/L74V/V75I (mixture)/K103N/Y115F/F116Y/Q151M,recombinant virus assay,-,0.969 µM
Cc1ncc(-c2ccc(N(C)CCOc3ccc(C#N)cc3)cn2)c(N2CCC(C)(C)CC2)c1[C@H](OC(C)(C)C)C(=O)O,NL4-3,-,luminescence,-,0.0079 µM
CN(C(=O)[C@H](Cc1cc(F)cc(F)c1)NC(=O)NS(=O)(=O)N[C@@H](Cc1cc(F)cc(F)c1)C(=O)N(C)c1ccc2snnc2c1)c1ccc2snnc2c1,NL4-3,-,luciferase,-,0.27 µM

The first 2 rows once more:

compound,strain,changes,method,conditions,result
C[C@H](Cn1cnc2c(N)ncnc21)OCP(=O)(O)O,Clinical isolate,M41L/A98G/K103N/M184V/L210W/T215Y,recombinant virus assay,-,0.0112 µM
CC(C)C1=C2[C@H]3CC[C@@H]4[C@@]5(C)CC[C@H](OC(=O)[C@H]6C[C@@H](C(=O)O)C6(C)C)C(C)(C)[C@@H]5CC[C@@]4(C)[C@]3(C)CC[C@@]2([C@@H](O)CNC(=O)c2csc(N)n2)CC1=O,92HT599,-,p24 / ELISA,-,<1 µM